Compound potency records, mixed from different reports. Data source: NIAID ChemDB in PubChem.

All rows: whole-cell or culture tests; agent: Herpes simplex virus 1; read by: cytopathic effect; endpoint: EC50

Blank or dashed fields: not listed here. ECn is the concentration giving n% inhibition of infection, replication or growth. Lines come from different laboratories, so protocols vary.

SMILES | strain | cell line | value
Nc1ncnc2c1ccn2[C@@H]1O[C@H](CO)[C@H](O)[C@H]1O | B2006 (TK-) | PRK | 0.7 µg/mL
O=c1ccn([C@@H]2O[C@@H](CO)[C@H](O)[C@H]2O)c(=O)[nH]1 | F | VERO B | >1000 µM
Nc1ncc2c(ncn2COC(CO)CO)n1 | KOS HPMPA-resistant | HEL | 0.3 µg/mL
O=C(O)[C@H]1O[C@@H](Oc2cccc3cccnc23)[C@H](O)[C@@H](O)[C@@H]1O | KOS | HeLa | >200 µg/mL
Nc1nc2c(ncn2[C@@H]2O[C@@H](CO)[C@H](O)[C@H]2O)c(=O)[nH]1 | F | VERO B | >1000 µM
Nc1ncnc2c1ncn2C[C@H](O)CO | KOS | PRK | >100 µg/mL
CN1CCCC(CC2c3ccccc3Sc3ccccc32)C1 | KOS | HeLa | >200 µg/mL
O=C(O)P(=O)(O)O | KOS HPMPC-resistant | HEL | 14.6 µg/mL
CCOC(=O)P(=O)(OCCOCn1cnc2c(=O)[nH]c(N)nc21)OC(C)C | AVD | VERO | 0.77 µM
Nc1nc(N)c2ncn(CCOCP(=O)(O)O)c2n1 | KOS ACV-resistant | HEL | 5.7 µg/mL
COC(=O)C(N)CCSC[C@H]1O[C@@H](n2ccc3c(N)ncnc32)[C@H](O)[C@@H]1O | KOS | PRK/E6SM | 100 µg/mL
O=c1[nH]cnc2c1ncn2CCOCP(=O)(O)O | 3 strains | Primary rabbit kidney cells | >400 µg/mL
Nc1nc2c(ncn2CCC(CO)CO)c(=O)[nH]1 | KOS S2242-resistant | HEL | 0.11 µg/mL
Nc1nc(Cl)c2nnn(C[C@H]3CC[C@@H](CO)C3)c2n1 | KOS | E6SM | >200 µg/mL
Cc1cc(O)ccc1O | B2006 (TK-) | E6SM | 120 µg/mL
Clc1cc2nc[nH]c2cc1Cl | KOS | E6SM | >10 µg/mL
Nc1nccc2c1ncn2[C@@H]1O[C@H](CO)[C@@H](O)[C@H]1O | KOS F McIntyre | PRK | ≥40 µg/mL
Cc1cn([C@H]2C[C@@H](O)[C@H](CO)O2)c(=O)[nH]c1=O | F | VERO B | >1000 µM
Nc1nc(N)c2nnn(C[C@H]3CC[C@@H](CO)C3)c2n1 | B2006 (TK-) | E6SM | >400 µg/mL
O=C(O)Cc1ccc(O)c(O)c1 | KOS | E6SM | 15 µg/mL
Nc1nc2c(ncn2C[C@H]2CC[C@@H](CO)C2)c(=O)[nH]1 | KOS | E6SM | >400 µg/mL
COc1cc(O)c(CC=C(C)C)c2c1C(=O)CC(c1ccc(O)cc1)O2 | - | VERO | >62 µg/mL
Nc1nc2c(ncn2[C@@H]2C[C@H](CO)[C@H]2CO)c(=O)[nH]1 | KOS | VERO | 18 µg/mL
CCCC#Cc1c(C(N)=O)ncn1[C@@H]1O[C@H](CO)[C@@H](O)[C@H]1O | KOS | PRK | >400 µg/mL
Nc1ncnc2c1ncn2CC/C=C\P(=O)(O)O | SC16 | MRC-5 | >300 µM
Nc1nccc2c1ncn2[C@@H]1C[C@H](CO)[C@@H](O)[C@H]1O | KOS | PRK | >400 µg/mL
O=c1ccn(CC(CO)OCP(=O)(O)O)c(=O)[nH]1 | (TK-) 2 strains | Primary rabbit kidney cells | >400 µg/mL
O=c1[nH]c(=O)n([C@H]2C[C@H](O)[C@@H](CO)O2)cc1/C=C/Br | KOS | E6SM | 0.04 µg/mL
OC[C@H]1O[C@@H](n2cnc3cc(Cl)c(Cl)cc32)[C@H](O)[C@@H]1O | KOS | E6SM | >10 µg/mL
CC[C@H]1OC(=O)[C@H](C)[C@@H](O[C@H]2C[C@@](C)(OC)[C@@H](O)[C@H](C)O2)[C@H](C)[C@@H](O[C@H]2O[C@@H](C)C[C@@H](N(C)C)[C@@H]2O)[C@](C)(O)C[C@@H](C)C(=O)[C@H](C)[C@@H](O)[C@]1(C)O | KOS | HeLa | >200 µg/mL
Nc1ccn(OC(/C=C/P(=O)(O)O)CO)c(=O)n1 | SC16 | MRC-5 | >300 µM
Nc1ncnc2c1ccn2[C@H]1C[C@@H](O)[C@@H](CO)O1 | KOS | PRK | 70 µg/mL
Nc1nc2c(ncn2CC(CO)OCP(=O)(O)O)c(=O)[nH]1 | 3 strains | Primary rabbit kidney cells | 7 µg/mL
Nc1ncnc2c1ncn2C[C@@H](CO)OCP(=O)(O)O | KOS PFA-resistant | HEL | 0.065 µg/mL
Nc1ncnc2c1ncn2[C@H]1C[C@@H](O)[C@@H](CO)O1 | KOS | PRK/E6SM | 150 µg/mL
Nc1nc2c(ncn2COCCOP2(=O)OCc3ccccc3O2)c(=O)[nH]1 | KOS | E6SM | 1.3 µg/mL
NC(=O)c1ncn([C@@H]2O[C@H](CO)[C@@H](O)[C@H]2O)c1C#Cc1ccccc1 | KOS | PRK | >400 µg/mL
O[C@@H]1[C@@H](OCc2ccccc2)[C@@H](COCc2ccccc2)O[C@H]1n1cnc2cc(Cl)c(Cl)cc21 | KOS | E6SM | >10 µg/mL
O=C(O)Cc1cc(O)ccc1O | B2006 (TK-) | E6SM | 4 µg/mL
Nc1nccc2c1ncn2[C@@H]1C[C@H](CO)[C@@H](O)[C@H]1O | KOS | PRK | >400 µg/mL
Nc1ncnc2c1ncn2[C@@H]1OC(C#CI)[C@@H](O)[C@H]1O | VMW1837 (TK-) | E6SM | 0.26 µM
Cc1cc(O)c2c(c1)C(=O)c1cccc(O)c1C2=O | - | VERO | >25 µg/mL
Nc1nc2c(ncn2OCC/C=C\P(=O)(O)O)c(=O)[nH]1 | SC16 | MRC-5 | >300 µM
OCCOC(CCO)n1cnc2cc(Cl)c(Cl)cc21 | KOS | E6SM | >100 µg/mL
Cc1cc(=O)c2c(O)c3c(O)cc(O)c4c5c(O)cc(O)c6c(O)c7c(=O)cc(C)c8c1c2c(c34)c(c65)c78 | MAYO 1814 | BSC-1 | 20 µg/mL
Nc1cc(OC[C@H](CO)OCP(=O)(O)O)nc(N)n1 | KOS | - | 14 µM
Nc1nc2c(ncn2[C@H]2C=C[C@@H](CO)C2)c(=O)[nH]1 | KOS | E6SM | 0.64 µg/mL
Nc1nc2c(ncn2[C@H]2C[C@@H](O)[C@H](CO)O2)c(=O)[nH]1 | F | VERO B | >1000 µM
NC(=S)N/N=C(\c1ccccn1)C12CC3CC(CC(C3)C1)C2 | KOS | E6SM | >400 µg/mL
Nc1ncnc2c1ncn2OCC/C=C\P(=O)(O)O | SC16 | MRC-5 | >300 µM
C/C=C1\[C@H](OC2O[C@H](CO)[C@@H](O)[C@H](O)[C@H]2O)OC=C(C(=O)O)[C@H]1CC(=O)OCC(OCC)c1ccc(O)c(O)c1 | 15577 | VERO | >200 µM
COc1ccc(Cl)c(C)c1C(=O)OC1CC(OC2C(O)CC(O[C@H]3CCC[C@@H]4[C@@H]3C=C[C@H]3CCCC/C=C/[C@@H]5C=C(C(=O)O)[C@H](C)C[C@]56OC(=O)C(=C6O)OC(=O)[C@@]43C)OC2C)OC(C)C1O | KOS | HeLa | >200 µg/mL
Nc1nc(NC2CC2)c2ncn([C@H]3C=C[C@@H](COP4(=O)OCc5ccccc5O4)C3)c2n1 | KOS | E6SM | 8 µg/mL
Nc1ncnc2c1c(Br)cn2[C@@H]1O[C@H](CO)[C@@H](O)[C@H]1O | KOS | PRK/E6SM | >0.2 µg/mL
Cc1cc(O)cc(O)c1CC(=O)O | KOS | E6SM | 40 µg/mL
Nc1nc2c(ncn2CC/C=C\P(=O)(O)O)c(=O)[nH]1 | SC16 | MRC-5 | >300 µM
Nc1nc2c(ncn2COCCO)c(=O)[nH]1 | KOS | E6SM | 0.28 µg/mL
CC(C)[Si]1(C(C)C)OC[C@H]2O[C@@H](n3cnc4cc(Cl)c(Cl)cc43)[C@H](O)[C@H]2O[Si](C(C)C)(C(C)C)O1 | KOS | E6SM | >10 µg/mL
C/C=C1\[C@H](OC2O[C@H](CO)[C@@H](O)[C@H](O)[C@H]2O)OC=C(C(=O)OC)[C@H]1CC(=O)OC | 15577 | VERO | 83.3 µM
Nc1ncnc2c1ncn2C[C@@H](CO)OCP(=O)(O)O | KOS | - | 6.6 µM
COc1ccc2c(c1)COP(=O)(OC[C@@H]1C=C[C@H](n3cnc4c(NC5CC5)nc(N)nc43)C1)O2 | KOS | E6SM | 6.4 µg/mL
Cc1[nH]cnc1C(N)=O | - | HeLa | >200 µg/mL
Nc1ncnc2c1ncn2OCC/C=C/P(=O)(O)O | SC16 | MRC-5 | >300 µM
Nc1cc(OCCOCP(=O)(O)O)nc(N)n1 | KOS | - | 15 µM
Cc1c(C(N)=O)ncn1C1OC(CO)C(O)C1O | - | HeLa | 75 µg/mL
Nc1nc2ncn(COCCCl)c2c(=O)[nH]1 | KOS | VERO | >128 µg/mL
Nc1nccc2c1ncn2[C@@H]1C[C@H](CO)[C@@H](O)[C@H]1O | KOS | PRK | >400 µg/mL
Nc1ncnc2c1ncn2CCOCP(=O)(O)O | (TK-) 2 strains | Primary rabbit kidney cells | 7 µg/mL
C[C@H](N)C(=O)N[C@@H](CNC(=O)/C=C/C(N)=O)C(=O)O | KOS | HeLa | >200 µg/mL
Nc1ncnc2c1ncn2[C@@H]1O[C@H](C#CBr)[C@@H](O)[C@H]1O | VMW1837 (TK-) | E6SM | 6 µM
COC(=O)OP(=O)(CO[C@H](CO)Cn1cnc(N)nc1=O)OC(=O)OC | KOS ACV | - | 0.1 µg/mL

Again, the opening 6 rows:

SMILES,strain,cell line,value
Nc1ncnc2c1ccn2[C@@H]1O[C@H](CO)[C@H](O)[C@H]1O,B2006 (TK-),PRK,0.7 µg/mL
O=c1ccn([C@@H]2O[C@@H](CO)[C@H](O)[C@H]2O)c(=O)[nH]1,F,VERO B,>1000 µM
Nc1ncc2c(ncn2COC(CO)CO)n1,KOS HPMPA-resistant,HEL,0.3 µg/mL
O=C(O)[C@H]1O[C@@H](Oc2cccc3cccnc23)[C@H](O)[C@@H](O)[C@@H]1O,KOS,HeLa,>200 µg/mL
Nc1nc2c(ncn2[C@@H]2O[C@@H](CO)[C@H](O)[C@H]2O)c(=O)[nH]1,F,VERO B,>1000 µM
Nc1ncnc2c1ncn2C[C@H](O)CO,KOS,PRK,>100 µg/mL